Test results published in patent US20250152504A1, “INTRAUTERINE SYSTEMS COMPRISING ANTI-INFECTIVES FOR STEADY-STATE ACCUMULATION TO DISTAL EXTRAUTERINE TISSUE” (priority 2023, published 2025).

How the values were obtained:
[1] = In vitro drug release from TPU matrix delivery system prototypes; format: physicochemical; conditions: for Predicted T50%: from best-fit release model; for release rate: per each ⅓ segment of the device
Protocol: Films were cut into disks with a 1-inch diameter die punch; disks were stacked and placed between two pieces of aluminum foil and compressed under a metal weight on a 120° C. dry bath. Thickness was monitored frequently until it measured 3.5 mm with digital calipers calibrated to 0.01 mm. Devices were cut from thick films using a custom rectangular 3.5 mm×13.3 mm die punch.
All release tests were performed in sink conditions in PBS supplemented with 2% w/v Cremophor® A25/Emulgin® B25. For the first 7-days of drug release testing, 1 mL samples were taken daily; following 7 days, samples were taken every 3-4 days. At all timepoints, bottles were drained and replaced with fresh media following sampling.
A qualification for selecting an optimal TPU for DPV delivery in this application is the time to achieve 50% cumulative release of drug. This is based on the standard use time of hormonal IUDs, which in practice are removed once about half of the initial load of drug is depleted from the device. Here, this standard was used as a benchmark to evaluate the sustained release properties of candidate delivery system designs. […] The fit of first-order release kinetics to the data was assessed. Equations 1 and 2 describe drug release from a system where dissolution is dependent on a concentration gradient.
Where k is the first order rate constant, Ct is the concentration of drug in solution at time t and C0 is the initial concentration of drug.
Where Q is the amount of drug release in time t and kh is the Higuchi release constant.
Based on the best-fit square-root of time relation, T50% was calculated for each TPU. […] Korsmeyer and Peppas provided a method for understanding drug release mechanisms of swelling and non-swelling polymeric systems, given by Equation 4: […]
Where Mt/M∝ is the fraction of drug released at time t, K is the rate constant, and n is the release exponent.

[2] = Post-use assay of residual ARVs in removed IUDs (triple study); format: in vivo
Source text: FIGS. 15A-15C are graphs showing post-use assays of residual anti-retroviral pharmaceutical compositions in removed intrauterine devices, in accordance with the present technology. […]

[3] = Triple active compound (RAL, MVC, ETR) intrauterine system in vivo study, tissue and secretion concentrations
Source text: Described herein is a study conducted on an intrauterine system having a plurality of delivery systems (such as shown in FIGS. 1D and 1E). This study included three matrix delivery systems. The first delivery system included raltegravir (RAL), the second delivery system included etravirine (ETR), and the third delivery system included maraviroc (MVC). The intrauterine system was implanted and retained in the uterus of a patient for 28 days.
Multiple samples were taken before, during, and after insertion of the intrauterine system. Plasma samples were taken an hour before insertion, at insertion, 24 hours after insertion, 48 hours after insertion, 72 hours after insertion, 7 days after insertion, 14 days after insertion, 21 days after insertion, and 28 days after insertion (when the intrauterine system was removed). Vaginal swabs were taken an hour before insertion, at 7 days after insertion, 14 days after insertion, 21 days after insertion, and 28 days after insertion. Vaginal biopsies were taken an hour before insertion, 7 days after insertion, and 28 days after insertion. Endometrial and cervical biopsies were taken an hour before insertion and 28 days after insertion. Histology was also performed an hour before insertion, and consistent visual inspection was done throughout for safety.

With maraviroc [MVC] the “Actual T50%” value ([1]; 1 wt % loading, TPU2 matrix) was 2.5 days, the “First-Order: k” value ([1]; 1 wt % loading, TPU2 matrix) was 0.013, h^−1 and the “Higuchi: kH” value ([1]; 1 wt % loading, TPU2 matrix) was 0.125, %/h^1/2. For the same substance, the “Predicted T50%” value ([1]; 1 wt % loading, TPU2 matrix) was 1 days, the “Actual T50%” value ([1]; 1 wt % loading, TPU3 matrix) was 7 days and the “First-Order: k” value ([1]; 1 wt % loading, TPU3 matrix) was 0.003, h^−1. The “Higuchi: kH” value ([1]; 1 wt % loading, TPU3 matrix) was 0.037, %/h^1/2, the “Korsmeyer-Peppas Constant: n” value ([1]; 1 wt % loading, TPU3 matrix) was 0.890, and the “Predicted T50%” value ([1]; 1 wt % loading, TPU3 matrix) was 7.5 days. For the same substance, the “First-Order: k” value ([1]; 1 wt % loading, TPU4 matrix) was 0.0005, h^−1, the “Higuchi: kH” value ([1]; 1 wt % loading, TPU4 matrix) was 0.012, %/h^1/2 and the “Korsmeyer-Peppas Constant: n” value ([1]; 1 wt % loading, TPU4 matrix) was 0.793,. For the same substance, the “Predicted T50%” value ([1]; 1 wt % loading, TPU4 matrix) was 68 days, the “time to reach 100% release” value ([1]; 1 wt %, TPU2 matrix) was 13 days and the “cumulative release of encapsulated drug” value ([1]; 1 wt %, TPU2 matrix, first 24 hours) was “approximately 50%”. For the same substance, the cumulative release ([1]; 1 wt %, TPU4 matrix, total by 30 days) was 33.83%, the “First-Order: k” value ([1]; 16.6 wt % loading, TPU4 matrix) was 0.0002, h^−1 and the “Higuchi: kH” value ([1]; 16.6 wt % loading, TPU4 matrix) was 0.007, %/h^1/2. For the same substance, the “Korsmeyer-Peppas Constant: n” value ([1]; 16.6 wt % loading, TPU4 matrix) was 0.529,, the “Predicted T50%” value ([1]; 16.6 wt % loading, TPU4 matrix) was 221 days and the “cumulative release of loaded drug” value ([1]; 16.6 wt %, TPU4 matrix, after 30 days) was “approximately 18%”. The release rate ([1]; 16.6 wt %, TPU4 matrix, final rate at 30 days) was about 16 µg/day, the “First-Order: k” value ([1]; 30 wt % loading, TPU4 matrix) was 0.0001, h^−1 and the “Higuchi: kH” value ([1]; 30 wt % loading, TPU4 matrix) was 0.003, %/h^1/2. For the same substance, the “Predicted T50%” value ([1]; 30 wt % loading, TPU4 matrix) was 737 days, the “cumulative release of encapsulated drug” value ([1]; 30 wt %, TPU4 matrix, at 30 days) was “approximately 7%” and the release rate ([1]; 30 wt %, TPU4 matrix, at study terminus (30 days)) was 27.65 µg/day. For the same substance, the T50% [2] was 58 days, the Average dose ([2]; 28 days) was 77.75 µg/day and the “Total DPV released” value ([2]; 28 days) was 2.18 mg. The “tissue concentration, Vagina” value ([3]; 7 days after insertion) was 103.79 ng/mL, the “tissue concentration, Cervix” value ([3]; 28 days after insertion) was 137.275 ng/mL and the “tissue concentration, Endometrium” value ([3]; 28 days after insertion) was 523.41 ng/mL. For the same substance, the “tissue concentration, Rectum” value ([3]; 28 days after insertion) was 25.72 ng/mL, the “tissue concentration, Vagina” value ([3]; 28 days after insertion) was 108.30 ng/mL and the “Mean concentration in vaginal secretions” value ([3]; in vivo) was 12752.31 ng/mL.
